## Share of PSTVd loop 15 variants by leaf site

Values reported by Wu et al. 2024 (doi:10.1371/journal.ppat.1012142).

Region: loop 15 of PSTVd (intermediate strain), upper and lower strand joined, each 5' to 3', the first 7 letters being the upper strand, closing pairs included. Wild type: GGAAACCGCUACUAC. Varied positions (N): GGAAACCGNNNNNNC.

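A pool of all variants was put on leaves of three Nicotiana benthamiana plants. Samples came from the inoculated region at 5 days, the leaf margin at 10 and upper systemic leaves at 12.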

Values are reads per thousand in the sample; higher means more abundant, 0 means not found.
Each site shows the three plants.
"Pool" is the share in the plasmid pool used as inoculum, on the same scale.
The inoculated region was read from the minus strand, the other sites from the plus strand.
The authors trace changes outside the varied positions to PCR and sequencing errors or to mutation in the plant; presence does not show that a variant is infectious alone.

| sequence | pool | inoculated region | leaf margin | systemic leaves |
|---|---|---|---|---|
| GGAAACCGGGCUGCC | 0.320 | 0.0655 / 0.0321 / 0.0190 | 0 / 0.0223 / 0 | 0 / 0 / 0 |
| GGAAACCGGGCUGGC | 0.224 | 0.115 / 0.145 / 0.0381 | 0.0323 / 0 / 0.0200 | 0 / 0 / 0 |
| GGAAACCGGGCUGUC | 0.256 | 0.0655 / 0.0803 / 0.0952 | 0 / 0 / 0 | 0 / 0 / 0 |
| GGAAACCGGGCUUAC | 0.192 | 0.131 / 0.241 / 0.190 | 0 / 0 / 0 | 0 / 0 / 0 |
| GGAAACCGGGCUUCC | 0.240 | 0.131 / 0.0964 / 0.0952 | 0.0162 / 0 / 0.0200 | 0 / 0 / 0 |
| GGAAACCGGGCUUGC | 0.192 | 0.0983 / 0.0643 / 0.190 | 0 / 0 / 0.0200 | 0 / 0 / 0 |
| GGAAACCGGGCUUUC | 0.0800 | 0.0983 / 0.129 / 0.171 | 0.0162 / 0 / 0.0200 | 0 / 0 / 0.0228 |
| GGAAACCGGGGAAAC | 0.192 | 0.147 / 0.0643 / 0.0762 | 0.0323 / 0 / 0 | 0 / 0 / 0 |
| GGAAACCGGGGAACC | 0.208 | 0.147 / 0.112 / 0.171 | 0.0162 / 0 / 0 | 0 / 0 / 0 |
| GGAAACCGGGGAAGC | 0.192 | 0.0983 / 0.0643 / 0.248 | 0 / 0 / 0.0401 | 0 / 0 / 0 |
| GGAAACCGGGGAAUC | 0.240 | 0.115 / 0.112 / 0.0571 | 0 / 0 / 0.0200 | 0 / 0 / 0 |
| GGAAACCGGGGACAC | 0.224 | 0.0164 / 0.0803 / 0.209 | 0.0162 / 0 / 0.0200 | 0 / 0 / 0 |
| GGAAACCGGGGACCC | 0.256 | 0.147 / 0.0803 / 0.0571 | 0 / 0.0445 / 0.0200 | 0.0161 / 0.0151 / 0 |
| GGAAACCGGGGACGC | 0.304 | 0.0655 / 0.0643 / 0.0952 | 0 / 0.0223 / 0 | 0 / 0 / 0.0228 |
| GGAAACCGGGGACUC | 0.0960 | 0.0983 / 0.0643 / 0.0952 | 0.0323 / 0 / 0 | 0 / 0 / 0 |
| GGAAACCGGGGAGAC | 0.128 | 0.0164 / 0.0643 / 0.0762 | 0 / 0 / 0.0200 | 0 / 0 / 0 |
| GGAAACCGGGGAGCC | 0.288 | 0.0655 / 0.0643 / 0.0952 | 0.0162 / 0 / 0.0200 | 0 / 0 / 0 |
| GGAAACCGGGGAGGC | 0.160 | 0.0491 / 0.0482 / 0.0762 | 0 / 0 / 0 | 0 / 0 / 0 |
| GGAAACCGGGGAGUC | 0.304 | 0.0983 / 0.0964 / 0.0952 | 0.0162 / 0 / 0.0200 | 0.0161 / 0 / 0 |
| GGAAACCGGGGAUAC | 0.128 | 0.0819 / 0.0482 / 0.133 | 0 / 0.0445 / 0.0200 | 0 / 0 / 0 |
| GGAAACCGGGGAUCC | 0.192 | 0.0983 / 0.129 / 0.0952 | 0.0323 / 0 / 0.0200 | 0 / 0 / 0 |
| GGAAACCGGGGAUGC | 0.176 | 0.0655 / 0.0161 / 0.133 | 0.0162 / 0 / 0 | 0 / 0 / 0 |
| GGAAACCGGGGAUUC | 0.304 | 0.0819 / 0.0482 / 0.0762 | 0 / 0 / 0.0200 | 0 / 0 / 0 |
| GGAAACCGGGGCAAC | 0.208 | 0.0655 / 0.129 / 0.0762 | 0 / 0 / 0.0200 | 0 / 0 / 0 |
| GGAAACCGGGGCACC | 0.256 | 0.0983 / 0.0803 / 0.171 | 0 / 0.0223 / 0.0401 | 0 / 0 / 0 |
| GGAAACCGGGGCAGC | 0.272 | 0.131 / 0.129 / 0.114 | 0 / 0 / 0.0401 | 0 / 0 / 0 |
| GGAAACCGGGGCAUC | 0.256 | 0.131 / 0.0964 / 0.0571 | 0 / 0.0223 / 0.0401 | 0 / 0 / 0.0228 |
| GGAAACCGGGGCCAC | 0.224 | 0.0819 / 0.0964 / 0.0952 | 0 / 0.0223 / 0 | 0 / 0 / 0 |
| GGAAACCGGGGCCCC | 0.208 | 0.0655 / 0.0643 / 0.133 | 0.0162 / 0 / 0.0401 | 0 / 0 / 0 |
| GGAAACCGGGGCCGC | 0.192 | 0.0983 / 0.112 / 0.0571 | 0.0485 / 0 / 0 | 0 / 0 / 0 |
| GGAAACCGGGGCCUC | 0.176 | 0.115 / 0.0321 / 0.0571 | 0.0162 / 0.0223 / 0.0401 | 0.0161 / 0 / 0 |
| GGAAACCGGGGCGAC | 0.272 | 0.115 / 0.0964 / 0.0571 | 0 / 0 / 0.0200 | 0 / 0 / 0 |
| GGAAACCGGGGCGCC | 0.128 | 0.0819 / 0.0482 / 0.0952 | 0.0162 / 0.0223 / 0.0801 | 0 / 0 / 0 |
| GGAAACCGGGGCGGC | 0.288 | 0.0819 / 0.112 / 0.0952 | 0.0323 / 0.0223 / 0.0601 | 0 / 0 / 0 |
| GGAAACCGGGGCGUC | 0.192 | 0.0328 / 0.0803 / 0.0952 | 0 / 0 / 0.0200 | 0.0161 / 0 / 0.0228 |
| GGAAACCGGGGCUAC | 0.160 | 0.0491 / 0.112 / 0.0762 | 0.0162 / 0 / 0.0601 | 0 / 0 / 0 |
| GGAAACCGGGGCUCC | 0.224 | 0.0491 / 0.0482 / 0.171 | 0 / 0 / 0 | 0.0161 / 0 / 0 |
| GGAAACCGGGGCUGC | 0.352 | 0.0983 / 0.0643 / 0.0762 | 0 / 0.0223 / 0.0200 | 0 / 0 / 0 |
| GGAAACCGGGGCUUC | 0.272 | 0.0819 / 0.112 / 0.190 | 0 / 0 / 0.0200 | 0 / 0 / 0 |
| GGAAACCGGGGGAAC | 0.256 | 0.0655 / 0.145 / 0.0571 | 0.0162 / 0.0223 / 0.0401 | 0 / 0 / 0 |
| GGAAACCGGGGGACC | 0.144 | 0.131 / 0.0803 / 0.133 | 0.0162 / 0 / 0.0200 | 0 / 0 / 0 |
| GGAAACCGGGGGAGC | 0.256 | 0.0655 / 0.0964 / 0.114 | 0 / 0 / 0.0601 | 0 / 0 / 0 |
| GGAAACCGGGGGAUC | 0.288 | 0.0983 / 0.0482 / 0.0381 | 0 / 0 / 0 | 0.0161 / 0 / 0 |
| GGAAACCGGGGGCAC | 0.128 | 0.0819 / 0.0803 / 0.114 | 0.0162 / 0.0223 / 0 | 0 / 0 / 0 |
| GGAAACCGGGGGCCC | 0.288 | 0.164 / 0.0964 / 0.152 | 0.0162 / 0 / 0 | 0.0322 / 0 / 0 |
| GGAAACCGGGGGCGC | 0.192 | 0.131 / 0.0643 / 0.0381 | 0 / 0.0223 / 0 | 0 / 0 / 0 |
| GGAAACCGGGGGCUC | 0.208 | 0.115 / 0.0643 / 0.0762 | 0 / 0 / 0.0200 | 0 / 0 / 0 |
| GGAAACCGGGGGGAC | 0.160 | 0.131 / 0.0803 / 0.0190 | 0 / 0 / 0.0200 | 0 / 0 / 0 |
| GGAAACCGGGGGGCC | 0.240 | 0.0491 / 0.112 / 0.0571 | 0.0323 / 0 / 0.0200 | 0 / 0 / 0 |
| GGAAACCGGGGGGGC | 0.192 | 0.115 / 0.0482 / 0.114 | 0 / 0 / 0.0601 | 0.0161 / 0 / 0 |
| GGAAACCGGGGGGUC | 0.320 | 0.0819 / 0.0964 / 0.152 | 0.0323 / 0.0223 / 0.0401 | 0 / 0 / 0 |
| GGAAACCGGGGGUAC | 0.208 | 0.360 / 0.225 / 0.286 | 0.162 / 0.0891 / 0.100 | 0.0161 / 0.0605 / 0.0684 |
| GGAAACCGGGGGUCC | 0.320 | 0.0819 / 0.0964 / 0.0571 | 0 / 0 / 0.0401 | 0.0161 / 0 / 0.0228 |
| GGAAACCGGGGGUGC | 0.160 | 0.0983 / 0.0482 / 0.0381 | 0 / 0 / 0.0601 | 0.0161 / 0 / 0 |
| GGAAACCGGGGGUUC | 0.144 | 0.0491 / 0.0321 / 0.0762 | 0 / 0 / 0 | 0.0161 / 0 / 0 |
| GGAAACCGGGGUAAC | 0.208 | 0.0983 / 0.0803 / 0.0952 | 1.20 / 0.0223 / 0.0401 | 0 / 0.0151 / 0 |
| GGAAACCGGGGUACC | 0.272 | 0.0983 / 0.145 / 0.133 | 0 / 0 / 0.0401 | 0 / 0 / 0 |
| GGAAACCGGGGUAGC | 0.176 | 0.0819 / 0.0482 / 0.0571 | 0.0162 / 0.0223 / 0 | 0 / 0 / 0 |
| GGAAACCGGGGUAUC | 0.160 | 0.246 / 0.145 / 0.0762 | 0 / 0 / 0 | 0 / 0 / 0 |
| GGAAACCGGGGUCAC | 0.192 | 0.180 / 0.112 / 0.114 | 0 / 0.0223 / 0.0200 | 0 / 0 / 0 |
| GGAAACCGGGGUCCC | 0.256 | 0.0819 / 0.177 / 0.0762 | 0 / 0 / 0.0200 | 0 / 0 / 0 |
| GGAAACCGGGGUCGC | 0.336 | 0.0983 / 0.0643 / 0.0762 | 0.0162 / 0 / 0.0401 | 0 / 0 / 0 |
| GGAAACCGGGGUCUC | 0.272 | 0.0491 / 0.0643 / 0.152 | 0 / 0.0223 / 0 | 0 / 0 / 0 |
| GGAAACCGGGGUGAC | 0.224 | 0.147 / 0.0803 / 0.0952 | 0 / 0.0223 / 0 | 0 / 0 / 0 |
| GGAAACCGGGGUGCC | 0.176 | 0.0819 / 0.161 / 0.133 | 0 / 0 / 0 | 0 / 0 / 0 |
| GGAAACCGGGGUGGC | 0.208 | 0.0491 / 0.145 / 0.0952 | 0.0162 / 0.0223 / 0 | 0 / 0 / 0 |
| GGAAACCGGGGUGUC | 0.224 | 0.0819 / 0.112 / 0.171 | 0 / 0 / 0 | 0.0161 / 0 / 0 |
| GGAAACCGGGGUUAC | 0.224 | 0.0655 / 0.129 / 0.0762 | 0 / 0 / 0.0401 | 0 / 0 / 0 |
| GGAAACCGGGGUUCC | 0.288 | 0.0655 / 0.0803 / 0.0381 | 0 / 0 / 0.0200 | 0 / 0 / 0 |
| GGAAACCGGGGUUGC | 0.224 | 0.131 / 0.0803 / 0.133 | 0.0323 / 0 / 0 | 0 / 0 / 0 |
| GGAAACCGGGGUUUC | 0.208 | 0.0328 / 0.129 / 0.190 | 0.0162 / 0.0223 / 0.0401 | 0 / 0 / 0 |
| GGAAACCGGGUAAAC | 0.0960 | 0.0655 / 0.161 / 0.305 | 0 / 0.0223 / 0 | 0.0322 / 0.0151 / 0 |
| GGAAACCGGGUAACC | 0.128 | 0.0655 / 0.0161 / 0.0762 | 0.113 / 0 / 0 | 0 / 0 / 0.0228 |

5 of these entries, quoted again:

{"sequence": "GGAAACCGGGGUAUC", "pool": "0.160", "inoculated region": "0.246 / 0.145 / 0.0762", "leaf margin": "0 / 0 / 0", "systemic leaves": "0 / 0 / 0"}
{"sequence": "GGAAACCGGGGUUCC", "pool": "0.288", "inoculated region": "0.0655 / 0.0803 / 0.0381", "leaf margin": "0 / 0 / 0.0200", "systemic leaves": "0 / 0 / 0"}
{"sequence": "GGAAACCGGGGAUCC", "pool": "0.192", "inoculated region": "0.0983 / 0.129 / 0.0952", "leaf margin": "0.0323 / 0 / 0.0200", "systemic leaves": "0 / 0 / 0"}
{"sequence": "GGAAACCGGGGGUAC", "pool": "0.208", "inoculated region": "0.360 / 0.225 / 0.286", "leaf margin": "0.162 / 0.0891 / 0.100", "systemic leaves": "0.0161 / 0.0605 / 0.0684"}
{"sequence": "GGAAACCGGGGAGAC", "pool": "0.128", "inoculated region": "0.0164 / 0.0643 / 0.0762", "leaf margin": "0 / 0 / 0.0200", "systemic leaves": "0 / 0 / 0"}

Wild type was 33.9 per thousand in the pool and the most common sequence in every sample (inoculated region 202, 200, 159; leaf margin 724, 746, 710; systemic leaves 856, 883, 880).
Samples held 43,870 to 66,106 reads, so the smallest values rest on one or two reads.